Data: patent US9260446B2, “Synthetic methods for spiro-oxindole compounds” (Xenon Pharmaceuticals Inc., priority 2009, dated 2016)

Sequences of proteins named here, by UniProt entry; tags and fusion partners are left off. A change or cut given only in a name is not applied to a line headed by its entry.
UniProt Q15858: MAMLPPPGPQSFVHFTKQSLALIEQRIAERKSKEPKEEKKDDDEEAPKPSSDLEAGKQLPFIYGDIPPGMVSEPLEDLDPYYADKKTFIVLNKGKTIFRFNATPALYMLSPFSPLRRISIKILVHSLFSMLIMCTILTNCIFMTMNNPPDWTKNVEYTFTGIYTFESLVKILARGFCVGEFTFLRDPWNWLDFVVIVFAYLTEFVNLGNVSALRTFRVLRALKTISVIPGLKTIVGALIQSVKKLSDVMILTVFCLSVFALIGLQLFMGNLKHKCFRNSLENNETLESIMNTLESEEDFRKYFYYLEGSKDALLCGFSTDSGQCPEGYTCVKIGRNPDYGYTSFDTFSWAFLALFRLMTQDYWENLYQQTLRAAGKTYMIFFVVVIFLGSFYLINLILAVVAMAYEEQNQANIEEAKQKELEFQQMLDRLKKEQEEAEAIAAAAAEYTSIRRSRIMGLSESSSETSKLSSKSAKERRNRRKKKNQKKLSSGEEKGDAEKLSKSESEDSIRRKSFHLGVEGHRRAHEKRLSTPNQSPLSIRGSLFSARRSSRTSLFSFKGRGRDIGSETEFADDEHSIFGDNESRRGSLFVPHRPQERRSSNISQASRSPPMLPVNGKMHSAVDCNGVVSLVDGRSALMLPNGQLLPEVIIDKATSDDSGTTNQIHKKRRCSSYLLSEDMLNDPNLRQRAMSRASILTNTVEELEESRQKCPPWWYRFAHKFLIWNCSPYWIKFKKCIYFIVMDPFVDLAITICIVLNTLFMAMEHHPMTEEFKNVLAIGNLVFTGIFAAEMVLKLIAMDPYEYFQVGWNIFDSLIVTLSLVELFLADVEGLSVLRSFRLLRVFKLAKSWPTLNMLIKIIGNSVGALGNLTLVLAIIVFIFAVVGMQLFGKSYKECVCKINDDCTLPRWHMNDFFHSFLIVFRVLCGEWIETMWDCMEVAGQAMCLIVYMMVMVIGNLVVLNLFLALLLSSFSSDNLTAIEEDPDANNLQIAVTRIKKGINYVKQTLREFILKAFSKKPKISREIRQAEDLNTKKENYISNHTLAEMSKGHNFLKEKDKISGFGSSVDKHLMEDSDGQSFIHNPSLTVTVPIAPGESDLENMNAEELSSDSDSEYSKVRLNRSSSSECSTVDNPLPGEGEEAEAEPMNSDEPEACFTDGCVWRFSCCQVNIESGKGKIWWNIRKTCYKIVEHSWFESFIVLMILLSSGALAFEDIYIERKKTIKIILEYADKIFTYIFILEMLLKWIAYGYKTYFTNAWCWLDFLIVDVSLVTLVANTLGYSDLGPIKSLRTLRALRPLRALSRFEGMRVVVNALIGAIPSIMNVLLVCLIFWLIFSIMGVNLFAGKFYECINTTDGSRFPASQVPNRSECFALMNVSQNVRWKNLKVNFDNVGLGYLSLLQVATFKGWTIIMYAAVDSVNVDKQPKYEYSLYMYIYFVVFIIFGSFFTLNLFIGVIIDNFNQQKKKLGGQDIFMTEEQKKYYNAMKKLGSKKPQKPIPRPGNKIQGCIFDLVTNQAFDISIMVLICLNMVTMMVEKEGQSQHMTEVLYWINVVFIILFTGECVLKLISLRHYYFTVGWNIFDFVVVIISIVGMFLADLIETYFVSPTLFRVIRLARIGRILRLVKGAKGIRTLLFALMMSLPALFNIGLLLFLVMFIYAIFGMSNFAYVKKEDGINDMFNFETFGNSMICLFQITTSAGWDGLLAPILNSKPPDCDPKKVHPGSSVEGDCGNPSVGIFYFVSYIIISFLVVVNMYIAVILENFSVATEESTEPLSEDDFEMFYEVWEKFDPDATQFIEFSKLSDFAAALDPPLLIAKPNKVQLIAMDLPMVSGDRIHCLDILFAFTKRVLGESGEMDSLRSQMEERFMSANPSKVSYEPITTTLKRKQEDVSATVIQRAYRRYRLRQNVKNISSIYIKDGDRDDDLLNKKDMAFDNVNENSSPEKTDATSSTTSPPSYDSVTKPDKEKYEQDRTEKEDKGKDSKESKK
UniProt Q9Y5Y9: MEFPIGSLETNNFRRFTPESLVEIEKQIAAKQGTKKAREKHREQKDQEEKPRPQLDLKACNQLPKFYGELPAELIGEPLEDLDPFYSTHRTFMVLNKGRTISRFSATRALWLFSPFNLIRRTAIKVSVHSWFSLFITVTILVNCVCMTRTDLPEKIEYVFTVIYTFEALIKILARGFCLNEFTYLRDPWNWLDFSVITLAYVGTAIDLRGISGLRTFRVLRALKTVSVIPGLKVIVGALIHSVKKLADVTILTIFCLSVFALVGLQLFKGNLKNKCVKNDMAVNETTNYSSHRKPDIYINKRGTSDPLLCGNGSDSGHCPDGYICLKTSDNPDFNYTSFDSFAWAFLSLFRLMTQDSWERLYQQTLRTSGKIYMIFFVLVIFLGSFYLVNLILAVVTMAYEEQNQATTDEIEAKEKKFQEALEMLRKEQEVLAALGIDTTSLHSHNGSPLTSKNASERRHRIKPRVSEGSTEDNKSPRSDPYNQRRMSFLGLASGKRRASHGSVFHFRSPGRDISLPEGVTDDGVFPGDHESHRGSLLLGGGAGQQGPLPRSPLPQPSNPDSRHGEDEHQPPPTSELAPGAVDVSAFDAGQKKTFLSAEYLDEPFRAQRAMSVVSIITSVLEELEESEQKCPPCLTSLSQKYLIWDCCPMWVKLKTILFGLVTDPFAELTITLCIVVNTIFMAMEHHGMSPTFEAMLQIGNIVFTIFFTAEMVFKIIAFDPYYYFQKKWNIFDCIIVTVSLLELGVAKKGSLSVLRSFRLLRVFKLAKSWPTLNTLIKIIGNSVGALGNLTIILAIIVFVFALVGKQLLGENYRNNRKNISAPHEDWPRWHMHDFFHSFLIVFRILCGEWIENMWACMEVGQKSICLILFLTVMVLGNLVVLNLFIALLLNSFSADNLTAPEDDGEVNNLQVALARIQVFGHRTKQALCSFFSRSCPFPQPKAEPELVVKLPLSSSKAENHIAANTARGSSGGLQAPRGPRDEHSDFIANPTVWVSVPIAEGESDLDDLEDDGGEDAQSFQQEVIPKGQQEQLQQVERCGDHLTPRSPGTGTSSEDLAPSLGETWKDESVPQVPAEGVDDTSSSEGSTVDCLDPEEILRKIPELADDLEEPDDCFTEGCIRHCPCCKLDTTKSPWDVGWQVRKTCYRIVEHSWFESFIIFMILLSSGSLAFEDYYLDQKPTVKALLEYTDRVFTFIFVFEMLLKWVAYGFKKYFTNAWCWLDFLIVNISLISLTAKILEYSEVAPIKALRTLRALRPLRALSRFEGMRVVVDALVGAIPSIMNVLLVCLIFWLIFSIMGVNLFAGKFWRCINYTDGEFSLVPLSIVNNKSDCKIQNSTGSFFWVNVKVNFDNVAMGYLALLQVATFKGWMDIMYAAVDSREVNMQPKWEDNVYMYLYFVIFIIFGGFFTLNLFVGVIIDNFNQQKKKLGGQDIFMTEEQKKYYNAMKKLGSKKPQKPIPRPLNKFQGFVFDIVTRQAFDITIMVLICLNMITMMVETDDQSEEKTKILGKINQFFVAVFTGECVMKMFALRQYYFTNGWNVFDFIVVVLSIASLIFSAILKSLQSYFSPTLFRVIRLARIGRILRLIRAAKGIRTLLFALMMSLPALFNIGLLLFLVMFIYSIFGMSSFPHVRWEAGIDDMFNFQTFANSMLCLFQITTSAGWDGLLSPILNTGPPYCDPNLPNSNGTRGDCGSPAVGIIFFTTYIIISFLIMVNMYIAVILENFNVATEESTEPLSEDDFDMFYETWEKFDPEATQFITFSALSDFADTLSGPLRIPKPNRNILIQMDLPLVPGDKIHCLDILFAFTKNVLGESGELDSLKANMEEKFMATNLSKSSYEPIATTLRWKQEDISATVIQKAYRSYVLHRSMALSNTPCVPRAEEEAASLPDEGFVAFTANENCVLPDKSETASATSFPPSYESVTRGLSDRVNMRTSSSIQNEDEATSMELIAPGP

Experiments:
[1] = target: hNav1.7 (Homo sapiens (Human), UniProt Q15858); assay: Guanidine influx assay, hNav1.7
[2] = test system: Nav1.4 and 1.5; assay: Guanidine influx assay, L6 cells; settings: 10- to 15-fold increase in influx, TTX at 100 nM
[3] = test system: Nav1.2 and Nav1.7; assay: Guanidine influx assay, PC12 cells; settings: 8- to 12-fold increase in influx
[4] = test system: Nav1.4; assay: Guanidine influx assay, CHO-K1 cells; settings: 18- to 20-fold increase in influx
[5] = test system: Nav1.9 and Nav1.7; assay: Guanidine influx assay, SH-SY5Y cells; settings: 10- to 16-fold increase in influx
[6] = target: Nav1.8 (Homo sapiens (Human), UniProt Q9Y5Y9); assay: Guanidine influx assay, SK-N-BE2C cells; settings: SK-N-BE2C cells stimulated with pyrethroids; 6-fold increase in influx

Substance: TTX
- IC50 [1]: 8 nM
- block of [14C] guanidine influx [2]: partially blocked by TTX at 100
- block of [14C] guanidine influx [3]: guanidine influx was completely
- block of [14C] guanidine influx [4]: completely blocked using TTX.
- block of [14C] guanidine influx above background [5]: background was partially blocked
- block of [14C] guanidine influx [6]: TTX partially blocked influx
